Anti-infective test results gathered from many reports (values: NIAID ChemDB through PubChem).

Shared fields: tests on isolated targets; organism: HIV-1; protein: Integrase; read-out: IC50

ICn: concentration for n% inhibition.

smiles	strain	mutations	result
Cc1coc2c1[C@H]1C=C(CC[C@@H]3O[C@]3(C)C2)C(=O)O1			>100 µM
O=C(/C=C(\O)c1ccccn1)c1ccccn1			61.4 µM
Cc1cc(S(=O)(=O)Nc2nnc3cc(C(F)(F)F)cc(C)n23)c(S)cc1Cl			11.9 µM
CC[C@H](C)/C=C(C)/C=C/C1=CC2=C(Cl)C(=O)[C@](C)(OC(C)=O)C(=O)C2=CO1			14.5 µg/mL
O=c1oc2c(O)c(O)cc3c(=O)oc4c(O)c(O)cc1c4c23			5 µM
O=C(/C=C/c1ccc(O)c2c1[C@H](C(=O)O)[C@@H](c1ccc(O)c(O)c1)O2)O[C@H](Cc1ccc(O)c(O)c1)C(=O)O			1.4 µM
C[C@@H]1CCO[C@H]2Cn3cc(C(=O)NCc4ccc(F)cc4F)c(=O)c(O)c3CN12		Y143R	0.025 µM
O=c1c(O)c(-c2ccc(O)c(O)c2)oc2cc(O)c(O)c(O)c12			1 µM
O=C(O)c1cc(N=Nc2ccc(S(=O)(=O)Nc3ccccn3)cc2)ccc1O			250 µM
Cc1ccccc1Cc1cccc(C(=O)CC(=O)C(=O)O)c1			0.01 µM
C=C1[C@H]2C[C@H]2[C@]2(C)Cc3occ(C)c3[C@H](OC(C)=O)[C@@H]12			>100 µM
CC(C)Oc1ccc(Cc2ccccc2)cc1C(=O)CC(=O)C(=O)O			0.05 µM
CNS(=O)(=O)OC1C2OC([C@@H](C)C(C)C)C[C@@H](C)[C@@H]2[C@@]2(C)CC[C@H]3[C@@H]([C@@H](OS(=O)(=O)O)[C@@H](O)[C@H]4[C@@H](O)[C@H](OS(=O)(=O)O)CC[C@@]43C)[C@H]12			15 µg/mL
Cc1cc(S(=O)(=O)Nc2nc(N)nc3nc4ccccc4n23)c(S)cc1Cl			7.1 µM
COc1cc2ccnc3c2c(c1OC)-c1c(ccc(O)c1OC)C3=O			>100 µM
O=C(/C=C/c1ccc(O)c(O)c1)O[C@@H]1CC(O)(C(=O)O)C[C@@H](OC(=O)/C=C/c2ccc(O)c(O)c2)C1O	LAI		0.3 µM
Cc1ccc(Nc2nc(NS(=O)(=O)c3cc(C)c(Cl)cc3S)n(C)n2)cc1			15.3 µM
COc1ccc(OC)c2c1c(/C(O)=C/C(=O)C(=O)O)cn2Cc1ccc(F)cc1			0.06 µM
COc1c2c3c(c4c1OCO4)-c1c(ccc(O)c1OC)C[C@@H]3NCC2			>100 µM
O=C(/C=C(\O)c1ccc(Cl)cc1)C(=O)NNC(=O)c1ccccc1Nc1ccccc1			21.2 µM
Cc1cc(S(=O)(=O)Nc2nnc3ccc4ccccc4n23)c(S)cc1Cl			10.4 µM
COc1c(O)ccc2c1-c1c3c(cc4c1[C@H](C2)N(C)CC4)OCO3			>100 µM
O=[N+]([O-])c1ccc(N=Nc2c(S(=O)(=O)O)cc3cc(S(=O)(=O)O)cc(O)c3c2O)cc1			97 µM
COC(=O)/C(C)=C1\C(=O)O[C@]2(C)[C@H]([C@H]1O)[C@@](C)(CO)[C@@H]1C[C@@H]12			>100 µM
Cc1cn(C2CC(N=[N+]=[N-])C(CO)O2)c(=O)n(/C=C/C(=O)/C=C(\O)c2nnnn2Cc2ccc(F)cc2)c1=O			350 µM

For reference, 3 entries again:

smiles | strain | mutations | result
CC(C)Oc1ccc(Cc2ccccc2)cc1C(=O)CC(=O)C(=O)O |  |  | 0.05 µM
Cc1ccc(Nc2nc(NS(=O)(=O)c3cc(C)c(Cl)cc3S)n(C)n2)cc1 |  |  | 15.3 µM
O=C(/C=C/c1ccc(O)c(O)c1)O[C@@H]1CC(O)(C(=O)O)C[C@@H](OC(=O)/C=C/c2ccc(O)c(O)c2)C1O | LAI |  | 0.3 µM

Lines come from different laboratories, so protocols vary. Blank or dashed fields: not listed here.